According to patent US20170158753A1 (INTEGRATED BIOTHERAPEUTICS, published 2017):

Key:
cleaved EBOV GP (GPcl) = cleaved EBOV GP (GPcl) (Ebola virus (EBOV), UniProt Q05320 33-632); assay: ELISA on thermolysin cleaved EBOV GP (GPcl), OD650 against nM mAb
BDBV GPΔTM = BDBV GPΔTM (Bundibugyo virus (BDBV)); assay: ELISA, GPΔTM coated

B1: m8C4 (antibody, V domains shown)
VH: EVQLQESGPELKKPGETVKISCKASGYTFTTYGMSWVKQAPGKGLKWMGRINTYSGVPTYADEFKGRFAFSLENSASTAYLQINNLKNEDTATYFCARGDGGHWFANWGQGTLVTVSA
VL: DIQMTQSPSSLSASLGGKVTITCKASQDINKNIAWYQHKPGKGPRLLIWYKSALQPGIPSRFSGSGSGRDYSFSISNLEPEDIATYSCLQYDNLPPTFGGGTKLEIKR
binding result (cleaved EBOV GP (GPcl)): no binding (tested: about 67 nM (last point; axis to 100 nM))

B2: m16G8 (antibody, V domains shown)
VH: EVQLQESGPGLVKPGASVKISCKASGYSFTGYYMNWVKQSPEKSLEWIGEINPSTGGTTYNQKFKAKATLTVDKSSSTAYMQLKSLTSEDSAVYYCVRYSHYYGSGSWYFDVWGTGTTVTVSS
VL: DIQMTQSPASLSASVGETVTITCRASENIYSNLAWYQQKQGKSPQLLVNAATNLADGVPSRFSGSGSGTQFSLKINSLQPEDFGSYYCQHFYVTPYMFGSGTKLEIKR
EC50 (BDBV GPΔTM): 0.5 µg/mL

B3: m17C6 (antibody, V domains shown)
VH: EVQLQESGPGLVQPSQSLSITCTVSGFSLTSYGVHWVRQSPGKGLEWLGVIWSGGSTDYNAAFISRLSISKDNSKSQVFFKMNSLQADDTAIYYCARNWFDYDNYYSMDYWGQGTSVTVSS
VL: DIQMTQTTSSLSASLGDRVTISCRASQDISNYLNWYQQKPDGTVKLLIYYTSRLHSGVPSRFSGSGSGTDFSLTISNQEPEDIATYYCQQYSNLPWTFGGGTKLEIKR
EC50 (BDBV GPΔTM): > 10 µg/mL
